Laboratory results from paper PMC11796224, “Merck Open Global Health Library in vitro screening against Schistosoma mansoni identified two new substances with antischistosomal activities for further development” (Parasites & Vectors, 2025).
Where two headings read alike, the source gives them in different places.

Experiments:
Assay type in all cases: cell-based, Schistosoma mansoni
[1] = system: S. mansoni couples; experiment: Morphological analysis by confocal laser scanning microscopy (CLSM); conditions: 10 µM, 24 h after treatment
[2] = system: newly transformed schistosomula (NTS); experiment: In vitro screening against newly transformed schistosomula (Basel); conditions: 10 µM, 72 h incubation, Basel team
[3] = system: S. mansoni couples; experiment: Single and double treatment with OGHL00022 and/or OGHL00121 (Giessen); conditions: single/double treatment experiment; for Motility score after 24 h: 10 µM each, n = 3, mean ± SD
[4] = system: adult S. mansoni couples; experiment: In vitro screening of OGHL compounds and analogues against adult S. mansoni couples (Giessen); conditions: 10 µM; for Egg production score: 24 h, normalised, compared to negative control (DMSO); for Attachment after 4 h / Attachment after 24 h / Pairing stability after 4 h / Pairing stability after 24 h: adult couples, Giessen team
[5] = system: adult S. mansoni couples; experiment: In vitro screening against adult S. mansoni couples (Basel); conditions: 10 µM, 24 h incubation, Basel team
[6] = system: adult S. mansoni couples; experiment: Determination of EC50 values for pairing stability, attachment and motility (Giessen); conditions: 2.5-50 µM
[7] = system: stem cell proliferation in S. mansoni couples; experiment: EdU assay for stem cell proliferation; conditions: 10 µM, 24 h treatment, then 24 h EdU
[8] = scale 0-4 (3 = normal activity)

Clc1cccc(OCc2ncc3nccnc3n2)c1Cl
Morphological changes (tegument, gut, gonads) by CLSM [1]: no clear morphological changes
Activity against NTS [2]: greater than 65%
Motility score after 24 h [3]: 2.5 ± 0.1
Egg production ([3]; 10 µM, 24 h): almost completely inhibited egg production
Pairing stability after 24 h ([3]; 10 µM, biological triplicate): complete separation
Couples separated after 4 h [4]: > 50%
Egg production score [4]: 0%
Attachment after 4 h [4]: 37%
Attachment after 24 h [4]: 77%
Pairing stability after 4 h [4]: 13%
Pairing stability after 24 h [4]: 13%
Motility score after 4 h [4, 8]: 1.4
Motility score after 24 h [4, 8]: 1.9
Activity on adult worms [5]: 46–55%
EC50 ([6]; read-out: EC50 attachment, 4 h after treatment): 9.29 µM
EC50 ([6]; read-out: EC50 attachment, 24 h after treatment): 10.9 µM
EC50 ([6]; read-out: EC50 motility, 4 h after treatment): 15.7 µM
EC50 ([6]; read-out: EC50 motility, 24 h after treatment): 18.8 µM
EC50 ([6]; read-out: EC50 pairing stability, 4 h after treatment): 7.81 µM
EC50 ([6]; read-out: EC50 pairing stability, 24 h after treatment): 5.96 µM
EdU signals in males and females [7]: almost no EdU signals in either males or females

COc1ccc(CNc2nc(-c3ccc(C(=O)O)nc3)nc3sc4c(c23)CCCC4)cc1Cl
Morphological changes (tegument, gut, gonads) by CLSM ([1]; tested form: Na salt): no clear morphological changes
Activity against NTS ([2]; tested form: Na salt): not active
Motility score after 24 h ([3]; tested form: Na salt): 2.4 ± 0.2
Attachment capacity after 24 h ([3]; 10 µM, biological triplicate, tested form: Na salt): detachment of all worms
Egg production score ([4]; tested form: Na salt): 0%
Attachment after 4 h ([4]; tested form: Na salt): 100%
Attachment after 24 h ([4]; tested form: Na salt): 63%
Pairing stability after 4 h ([4]; tested form: Na salt): 100%
Pairing stability after 24 h ([4]; tested form: Na salt): 20%
Motility score after 4 h ([4]; scale 0-4 (3 = normal activity), tested form: Na salt): 3.0
EC50 ([6]; read-out: EC50 attachment, 4 h after treatment, tested form: Na salt): 12 µM
EC50 ([6]; read-out: EC50 attachment, 24 h after treatment, tested form: Na salt): 8.06 µM
EC50 ([6]; read-out: EC50 motility, 4 h after treatment, tested form: Na salt): 12.8 µM
EC50 ([6]; read-out: EC50 motility, 24 h after treatment, tested form: Na salt): 6.3 µM
EC50 ([6]; read-out: EC50 pairing stability, 4 h after treatment, tested form: Na salt): 10.5 µM
EC50 ([6]; read-out: EC50 pairing stability, 24 h after treatment, tested form: Na salt): 7.09 µM
EdU-positive cells in the ovaries ([7]; tested form: Na salt): slight reduction in the ovaries
EdU-positive cells in the testes ([7]; tested form: Na salt): complete reduction of EdU-positive cells in the testes
